# Measured values taken from patent US20240083981A1, “TREATMENT OF HERPES SIMPLEX VIRUS INFECTION” (priority 2022, published 2024).
# How the values were obtained:
# [1] = biological target: glycoprotein D (gD) of herpes simplex virus-1 (HSV-1), on infectious virus (herpes simplex virus-1 (HSV-1)) (UniProt Q69091); experiment: cell-based or functional assay
# [2] = biological target: glycoprotein D (gD) of herpes simplex virus-2 (HSV-2), on infectious virus (herpes simplex virus-2 (HSV-2)) (UniProt P03172); experiment: cell-based or functional assay
substance,measurement,setting,value
UB-621 (anti-HSV-gD mAb) (antibody),"IC50, plaque assay, HSV-1 RE TKnull in Vero cells",[1],11.3 nM
same,"IC50, plaque assay, HSV-2 333 TKnull in Vero cells",[2],28.1 nM
